A mixed list of measured activities; the numbers were collected in NIAID ChemDB.

All rows: tests on isolated targets; species: HIV-1; protein: Integrase

Two numbers with a dash give a range or band.

structure	strain	method	endpoint	result
Cc1cc(S(=O)(=O)/[NH+]=C2/N=C3C=C(c4ccc(Cl)cc4)SC3C(=O)N2Cc2ccccc2)c(S)cc1Cl	-	3′ processing	IC50	6 µM
O=C(Nc1ccc2c(O)c(N=Nc3cccc(C(=O)O)c3)c(S(=O)(=O)O)cc2c1)Nc1ccc2c(O)c(N=Nc3cccc(C(=O)O)c3)c(S(=O)(=O)O)cc2c1	-	strand transfer	IC50	0.5 µM
COCC(=O)Nc1cn2ccn(Cc3ccc(F)cc3)c(=O)c2c(O)c1=O	-	ELISA	IC50	0.01–0.1 µM
COC(=O)c1cc(NC(=O)c2nc(NC(=O)c3cc(NC(=O)c4cc(NC(=O)CCCN)cn4C)cn3C)cn2C)cn1C	-	3′ processing	IC50	15 µM
O=C1c2c(O)c(=O)nc(NCc3ccccc3)n2CCN1Cc1ccc(F)cc1	-	strand transfer	IC50	<10 µM
O=C1c2c(O)c(=O)c(-c3nccs3)cn2CCN1CCCc1cccc(F)c1	-	ELISA	IC50	0.01–0.1 µM
N#Cc1ccccc1-c1ccc(CN2C(=O)C(=O)c3ccccc32)cc1	-	3′ processing	IC50	>1000 µM
CO[C@H]1O[C@@H](n2ccc(=O)[nH]c2=O)C[C@@H]1N=[N+]=[N-]	-	strand transfer	IC50	6.7 µM
Cc1cc(CNC(=O)c2nc3n(c(=O)c2O)CC2(F)CCC3(N(C)C(=O)C(=O)N(C)C(C)C)CC2)ccc1F	-	radiometric	Ki	0.000002 µM
COCC1CN(Cc2ccc(F)cc2)C(=O)c2c(O)c(=O)c(C(=O)C(C)(C)C)cn21	-	ELISA	IC50	0.01–0.1 µM
CC(C)n1c(=O)c(O)c2n(c1=O)CCN(Cc1ccc(F)c(Cl)c1)C2=O	-	strand transfer	IC50	<10 µM
O=S(=O)(c1cccc2cnccc12)n1cncn1	-	3′ processing	IC50	>1000 µM
O=C(CCCCCNC(=O)CCCC[C@@H]1SC[C@@H]2NC(=O)N[C@@H]21)NCCCCCC(=O)NCc1cn(Cc2ccc(C(=O)c3cccc(/C(O)=C/C(=O)C(=O)O)c3)cc2)nn1	-	strand transfer	IC50	12.4 µM
CC1=C(C#N)c2nc(N)c(C#N)c(C)c2/C1=C/c1ccc(-c2ccc(Cl)c(C(=O)O)c2)o1	-	strand transfer	IC50	4 µM
CC1(C)CCC[C@]2(C)[C@H]3C[C@](C)(C=O)[C@@H](C[C@H](O)c4ccoc4)[C@]3(C)CC[C@@H]12	-	binding	IC50	9.6 µM
C=C(C=O)[C@@H]1C[C@@]2(C)C(=CC1=O)[C@H](OC(=O)/C(C)=C\C(C)CCCC)CC[C@@H]2C(=O)O	-	strand transfer	IC50	10 µM
CN(C)CCCNC(=O)c1cc(NC(=O)c2cc(NC(=O)c3cc(NC(=O)CCNC(=O)c4cc(NC(=O)c5cc(NC(=O)c6cc(NC(=O)CCCN)cn6C)cn5C)cn4C)cn3C)cn2C)cn1C	-	3′ processing	IC50	1.4 µM
Cc1cc(CNC(=O)c2nc3n(c(=O)c2O)CC2(F)CCC3(NC(=O)c3cccn(C)c3=O)CC2)ccc1F	-	radiometric	Ki	0.0000064 µM
O=C(OC1CCCCC1)c1cn2ccn(Cc3cccc(Cl)c3)c(=O)c2c(O)c1=O	-	ELISA	IC50	0.01–0.1 µM
CC1(C)CC(=O)c2c(nc(-c3coc4cc(OCc5ccc(F)cc5)ccc4c3=O)n2O)C1	-	3′ processing / radiometric	IC50	580 µM
CC(=O)N(C)CCN(C)c1nc(C(=O)NCc2ccc(F)cc2)c(O)c2ncccc12	HXB2	strand transfer	IC50	0.03 µM
CCOC(=O)c1c(C)nc(-c2coc3cc(OCc4ccc(F)cc4)ccc3c2=O)n1O	-	3′ processing / radiometric	IC50	>1000 µM
COC(=O)c1nc(NC(=O)c2cc(NC(=O)c3cc(NC(=O)CCCN)cn3C)cn2C)cn1C	-	3′ processing	IC50	130 µM
CN(C)C(=O)Cc1cn2ccn(Cc3cccc(Cl)c3)c(=O)c2c(O)c1=O	-	ELISA	IC50	0.01–0.1 µM
O=C(Nc1ccccc1)c1c(O)c2ncccc2oc1=O	-	strand transfer	IC50	>300 µM
CN(C)C(=O)C(=O)N(C)C12CCC(CO)(CC1)Cn1c2nc(C(=O)NCc2cccc(Cl)c2F)c(O)c1=O	-	radiometric	Ki	0.000002 µM
O=C(Nc1ccc2c(O)c(N=Nc3c(F)c(F)c(C(=O)O)c(F)c3F)c(S(=O)(=O)O)cc2c1)Nc1ccc2c(O)c(N=Nc3c(F)c(F)c(C(=O)O)c(F)c3F)c(S(=O)(=O)O)cc2c1	-	strand transfer	IC50	0.33 µM
CN(C)CCN1C(=O)c2cc(-c3ccccc3)c3[nH]c4ccccc4c3c2C1=O	-	ELISA / strand transfer / luminescence	IC50	>100 µM
COCC(C)(C)C(=O)c1cn2c(c(O)c1=O)C(=O)N(Cc1ccc(F)cc1)CC2	-	ELISA	IC50	0.01–0.1 µM
O=C1C(=O)N(Cc2ccc([N+](=O)[O-])cc2)c2ccccc21	-	strand transfer	IC50	333 µM
Cc1cnc2c(ccc3c(C)c(C)c(C)nc32)c1C	-	strand transfer	IC50	>100 µM
O=C(Nc1ccc2c(O)c(N=Nc3ccc(C(=O)O)cc3)c(S(=O)(=O)O)cc2c1)C(=O)Nc1ccc2c(O)c(N=Nc3ccc(C(=O)O)cc3)c(S(=O)(=O)O)cc2c1	-	strand transfer	IC50	1 µM
Cc1cc(S(=O)(=O)NC2=NC3C=CSC3C(=O)N2N)c(S)cc1Cl	-	3′ processing	IC50	35 µM
Cc1cc(CNC(=O)c2nc3n(c(=O)c2O)CC2(N4CCOCC4)CCC3(NC(=O)C(=O)N(C)C)CC2)ccc1F	-	radiometric	Ki	0.000003 µM
COc1cc2c(c3c1[nH]c1ccccc13)C(=O)N(CCN(C)C)C2=O	-	ELISA / strand transfer / luminescence	IC50	>100 µM
O=c1cc(Sc2ccc(Cl)cc2)[nH]c(=O)n1O	-	strand transfer / absorbance	IC50	0.64 µM
O=C(CCCC[C@@H]1SC[C@@H]2NC(=O)N[C@@H]21)NCc1cn(Cc2ccc(C(=O)c3cccc(/C(O)=C/C(=O)C(=O)O)c3)cc2)nn1	-	3′ processing	IC50	136.7 µM
Cc1nnc(C23CCC(NC(=O)C(=O)N(C)C)(CC2)c2nc(C(=O)NCc4ccc(F)c(C)c4)c(O)c(=O)n2C3)o1	-	radiometric	Ki	0.0000024 µM
CC/C=C\C=C\CO[C@@H]1O[C@H](CO)[C@@H](O)[C@H](O)[C@H]1O	-	strand transfer / absorbance	IC50	21 µM
CCOC(=O)c1ccc(N=Nc2c(S(=O)(=O)O)cc3cc(NC(=O)Nc4ccc5c(O)c(N=Nc6ccc(C(=O)OCC)cc6)c(S(=O)(=O)O)cc5c4)ccc3c2O)cc1	-	strand transfer	IC50	1.3 µM
Nc1ccn([C@@H]2O[C@H](COP(=O)(O)O)[C@@H](OP(=O)(O)OC[C@H]3OC[C@@H](n4cnc5c(N)ncnc54)[C@@H]3O)[C@H]2O)c(=O)n1	-	3′ processing	IC50	>300 µM
CN(C)CCN1C(=O)c2ccc3[nH]c4cc5c(cc4c3c2C1=O)OCO5	-	ELISA / strand transfer / luminescence	IC50	10.68 µM
O=C1C(=O)N(Cc2ccccc2[N+](=O)[O-])c2ccccc21	-	strand transfer	IC50	600 µM
COc1c(O)c2c3c(c1O)C(=O)C1(O)C(=C3C(C)=C(Cc3c(O)ccc(C(C)=O)c3O)C2=O)O[C@@H](C)C1(C)C	-	strand transfer	IC50	7.9 µM
CC/C=C\C=C\CO[C@@H]1O[C@H](C)[C@@H](O)[C@H](O)[C@H]1O	-	strand transfer / absorbance	IC50	>100 µM
O=C(Nc1ccc2c(O)c(N=Nc3cccc(C(=O)O)c3)c(S(=O)(=O)O)cc2c1)C(=O)Nc1ccc2c(O)c(N=Nc3cccc(C(=O)O)c3)c(S(=O)(=O)O)cc2c1	-	3′ processing	IC50	1 µM
O=C1NC(=O)C(c2ccc(C(=O)O)o2)=C1c1ccc(C(=O)O)o1	-	strand transfer	IC50	58 µM
CC[NH+](CC)CC.Cc1cc(OB(F)F)c(C(=O)/C=C/C=C2\O[B-](F)(F)Oc3cc(C)oc(=O)c32)c(=O)o1	-	3′ processing	IC50	13 µM
O=C(Cc1nc(=O)n(O)c2ncccc12)NCc1ccccc1	-	strand transfer	IC50	0.005 µM
O=C(NCc1ccc(Br)cc1)c1c(O)c2ncccc2oc1=O	-	strand transfer	IC50	35.7 µM
O=C1O[C@H]2[C@@H]3OC(=O)c4cc(O)c(O)c(O)c4-c4c(cc(O)c(O)c4O)C(=O)OC[C@H]2O[C@@H](OC(=O)c2cc(O)c(O)c(O)c2)[C@@H]3OC(=O)c2cc(O)c(O)c3c2[C@@H]2C1=CC(=O)[C@](O)(O3)C2(O)O	-	strand transfer	IC50	0.16 µg/mL
Cc1cc(CNC(=O)c2nc3n(c(=O)c2O)CC2(C(=O)NC4CNC4)CCC3(NC(=O)C(=O)N(C)C)CC2)ccc1F	-	radiometric	Ki	0.0000026 µM
Cc1cnc2c(ccc3c(C)c(C)cnc32)c1C	-	strand transfer	IC50	>100 µM
CC(=O)OCC12CCC(NC(=O)C(=O)N(C)C)(CC1)c1nc(C(=O)NCc3ccc(F)c(C)c3)c(O)c(=O)n1C2	-	radiometric	Ki	0.0000021 µM
CC/C=C/C=C/CO[C@H]1O[C@@H](C)[C@H](O)[C@@H](O)[C@H]1O	-	strand transfer / absorbance	IC50	16 µM
CCCCCCCCCCCCCCCC(=O)NC1C(COP(=O)(O)OC2C(O)C(COP(=O)(O)OC3CC(CO)OC3n3cnc4c(N)ncnc43)OC2n2cnc3c(N)ncnc32)OC(n2cnc3c(N)ncnc32)C1O	-	-	IC50	>1000 µM
Nc1ncnc2c1ncn2[C@@H]1CO[C@H](COP(=O)(O)O)C1	-	3′ processing	IC50	>200 µM
O=C(O)c1ccccc1-c1ccc(CN2C(=O)C(=O)c3ccccc32)cc1	-	strand transfer	IC50	600 µM
COC1=C(c2c(OC)cc3cc4cc(C)oc(=O)c4c(O)c3c2O)C(=O)c2c(O)cc(C)cc2C1=O	-	absorbance	IC50	6 µM
O=C(O)/C=C/c1ccc(N=Nc2c(S(=O)(=O)O)cc3cc(S(=O)(=O)O)c(N=Nc4ccc(/C=C/C(=O)O)cc4)c(O)c3c2O)cc1	-	strand transfer	IC50	0.75 µM
O=C(O)c1ccc(C2=C(c3ccc(C(=O)O)o3)C(=O)N(c3ccc(O)cc3)C2=O)o1	-	3′ processing	IC50	5.3 µM
NS(=O)(=O)c1ccc(NC(=O)c2ccccc2SSc2ccccc2C(=O)Nc2ccc(S(N)(=O)=O)cc2)cc1	-	-	IC50	>100 µM
Cc1cc2c(c3c4ccccc4n(C)c13)C(=O)N(CCN(C)C)C2=O	-	ELISA / strand transfer / luminescence	IC50	11.88 µM
O=c1ccn2ccn(Cc3cccc(Br)c3)c(=O)c2c1O	-	ELISA	IC50	0.01–0.1 µM
O=C(Nc1ccc2c(O)cc(S(=O)(=O)O)cc2c1)Nc1ccc2c(O)cc(S(=O)(=O)O)cc2c1	-	strand transfer	IC50	4 µM
Cc1c(F)cc(Br)c(CNC(=O)c2nc3n(c(=O)c2O)CC2(F)CCC3(N(C)C(=O)C(=O)N(C)C)CC2)c1Br	-	radiometric	Ki	0.0000052 µM
CN1CCN(CCC2CN(Cc3ccc(F)cc3)C(=O)c3c(O)c(=O)n(C4CC4)c(=S)n32)CC1	-	strand transfer	IC50	<10 µM
CC(C)(C)CC(=O)Nc1cn2c(c(O)c1=O)C(=O)N(Cc1ccc(F)c(Cl)c1)CC2	-	ELISA	IC50	0.01–0.1 µM
Cc1cc(=O)n(-c2ccc(Br)cc2F)n1C(=O)c1ccco1	-	strand transfer	IC50	>1000 µM
COC(=O)c1cc(NC(=O)c2cc(NC(=O)c3nc(NC(=O)CCCN)cn3C)cn2C)cn1C	-	3′ processing	IC50	130 µM
O=C1C(=O)N(Cc2ccc(Br)cc2)c2ccccc21	-	strand transfer	IC50	600 µM
COC(=O)c1c(Nc2cccc(-c3ccc(OC)c(OC)c3)c2)c2nccnc2n(O)c1=O	-	ELISA / strand transfer	IC50	0.22 µM
O=c1oc2cccnc2c(O)c1C(=S)NCc1ccccc1	-	strand transfer	IC50	>300 µM
Brc1ccc(CSc2nc3ccccc3s2)cc1	-	strand transfer	IC50	>1000 µM

The last 8 rows once more:

structure | strain | method | endpoint | result
CN1CCN(CCC2CN(Cc3ccc(F)cc3)C(=O)c3c(O)c(=O)n(C4CC4)c(=S)n32)CC1 | - | strand transfer | IC50 | <10 µM
CC(C)(C)CC(=O)Nc1cn2c(c(O)c1=O)C(=O)N(Cc1ccc(F)c(Cl)c1)CC2 | - | ELISA | IC50 | 0.01–0.1 µM
Cc1cc(=O)n(-c2ccc(Br)cc2F)n1C(=O)c1ccco1 | - | strand transfer | IC50 | >1000 µM
COC(=O)c1cc(NC(=O)c2cc(NC(=O)c3nc(NC(=O)CCCN)cn3C)cn2C)cn1C | - | 3′ processing | IC50 | 130 µM
O=C1C(=O)N(Cc2ccc(Br)cc2)c2ccccc21 | - | strand transfer | IC50 | 600 µM
COC(=O)c1c(Nc2cccc(-c3ccc(OC)c(OC)c3)c2)c2nccnc2n(O)c1=O | - | ELISA / strand transfer | IC50 | 0.22 µM
O=c1oc2cccnc2c(O)c1C(=S)NCc1ccccc1 | - | strand transfer | IC50 | >300 µM
Brc1ccc(CSc2nc3ccccc3s2)cc1 | - | strand transfer | IC50 | >1000 µM

ICn is the concentration giving n% inhibition. An empty or dashed field is not shown. Neighbouring rows are from separate reports.